Assay results as given in paper doi:10.1101/464495.
The exact form of at least one protein or probe is not confirmed. For some of these results: The comparison behind a weaker result is the experiment's own reference, which may not be listed here. For some of these results: At least one verdict rests on a figure or table, not on a statement of the authors.

Amino acid sequences for entries named in this document (tags omitted). A change or cut given only in a name is not applied to a line headed by its entry.
UniProt P19893: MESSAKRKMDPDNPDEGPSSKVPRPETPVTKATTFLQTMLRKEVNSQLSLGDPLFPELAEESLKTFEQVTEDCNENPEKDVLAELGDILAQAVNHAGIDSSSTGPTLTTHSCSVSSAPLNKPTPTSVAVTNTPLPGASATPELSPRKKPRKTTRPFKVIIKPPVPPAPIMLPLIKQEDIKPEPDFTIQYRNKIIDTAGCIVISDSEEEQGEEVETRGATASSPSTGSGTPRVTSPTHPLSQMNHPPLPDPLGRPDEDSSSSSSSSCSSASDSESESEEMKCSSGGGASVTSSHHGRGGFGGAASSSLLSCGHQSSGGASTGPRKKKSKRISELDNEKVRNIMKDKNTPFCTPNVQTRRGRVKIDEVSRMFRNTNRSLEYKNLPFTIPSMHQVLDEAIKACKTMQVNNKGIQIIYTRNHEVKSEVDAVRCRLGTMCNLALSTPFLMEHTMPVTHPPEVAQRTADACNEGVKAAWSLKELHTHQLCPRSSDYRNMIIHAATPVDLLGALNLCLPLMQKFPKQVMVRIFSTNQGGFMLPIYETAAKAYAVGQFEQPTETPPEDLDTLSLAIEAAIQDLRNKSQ

Assays:
[1] = molecular target: MBP-IE86 C-terminal fragment (IE86C) (human cytomegalovirus) (UniProt P19893); assay: size-exclusion chromatography
[2] = molecular target: MBP-IE86 C-terminal fragment (IE86C) (human cytomegalovirus) (UniProt P19893); assay: EMSA; conditions: 0-20 uM protein

| Sequence | binding result ([1]; less efficient than 28bp) | binding result [1] | further results |
| --- | --- | --- | --- |
| ACAGATCGTTTAGTGAACCGTACACG (double strand) [26bp DNA] | binds |  |  |
| AGACAGATCGTTTAGTGAACCGTACACGAT (double strand) [30bp DNA] | binds |  |  |
| AGATCGTTTAGTGAACCGTAC (double strand) [21bp DNA] | binds |  |  |
| ATAGACAGATCGTTTAGTGAACCGTACACGATTA (double strand) [34bp DNA] |  | binds more weakly |  |
| CAGATCGTTTAGTGAACCGTACAC (double strand) [24bp DNA] | binds |  |  |
| CGTTTAGTGAACCGCGCGCGATAGTACATAATCA (double strand) [FDC (1x)] |  | binds |  |
| CGTTTAGTGAACCGCGCGCGCGTTTAGTGAACCG (double strand) [FDC (2x) concatemer] |  |  | binding result ([1]; enhanced over 1x): binds |
| GGTGGGAGGTCTATATAAGCAGAGCTCGTTTAGTGAACCGTCAGATCGCCTGGAGAC (double strand) [crs EMSA probe] |  |  | binding result [2]: binds |
| TAATACGACTCACTATAGGGCGAATTGGAGCTCGTTTAGTGAACCGTCAGATCTCTAGAAGCTT (double strand) [64bp DNA] |  | binds more weakly |  |
| TCGTTTAGTGAACC (double strand) [14bp DNA] |  | binds more weakly |  |
